Measured data: PubChem BioAssay AID624099 (ICCB-Longwood, 2012)
Shown is one part, drawn at random, of about 21,000 deposited reagents. In the full data, 497 (2.4%) are marked active. 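Higher z means weaker E2 silencing; only reporter increases were scored, and knock-downs that hurt cell survival may mask genuine repressor factors.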

- Screen: 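Host factors E2 relies on to silence an HPV18 LCR reporter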 (primary screen)
- Cell system: human C33A cervical carcinoma cells (HPV-negative) stably expressing BPV1 E2 and an HPV18 LCR luciferase reporter
- Knock-down reagent: siRNA pool against human genes, 40 nM
- Duration: 72 h
- Detection: 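Per-well luciferase luminescence, z-scored on each plate against the plate mean and SD with control wells left out, then averaged across three replicate plates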
- Scale: mean z-score and z-score: higher = stronger reporter signal, weaker E2 silencing
- Active means: 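Mean z ≥ 2 together with z ≥ 2 in two or more of the three replicates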

MAPKAPK5 | mean z-score = 0.7; z-score, replicate A = 0.69; z-score, replicate B = 1.12; z-score, replicate C = 0.28; activity call = inactive
PRSS3 | mean z-score = 1.62; z-score, replicate A = 1.72; z-score, replicate B = 1.84; z-score, replicate C = 1.31; activity call = inactive
TMEM179B | mean z-score = -1.3; z-score, replicate A = -1.38; z-score, replicate B = -1.24; z-score, replicate C = -1.3; activity call = inactive
RBMXL2 | mean z-score = -0.42; z-score, replicate A = -0.66; z-score, replicate B = -0.46; z-score, replicate C = -0.15; activity call = inactive
LOC387884 (retired record) | mean z-score = 0.6; z-score, replicate A = 0.37; z-score, replicate B = 0.66; z-score, replicate C = 0.77; activity call = inactive
LOC387717 (retired record) | mean z-score = -0.15; z-score, replicate A = -0.32; z-score, replicate B = -0.32; z-score, replicate C = 0.18; activity call = inactive
CCDC183 | mean z-score = 0.18; z-score, replicate A = 0.69; z-score, replicate B = 0.18; z-score, replicate C = -0.34; activity call = inactive
LOC441165 (retired record) | mean z-score = -0.16; z-score, replicate A = 0.14; z-score, replicate B = -0.03; z-score, replicate C = -0.58; activity call = inactive
HOMEZ | mean z-score = -1.17; z-score, replicate A = -1.22; z-score, replicate B = -1.02; z-score, replicate C = -1.28; activity call = inactive
ZNF37A | mean z-score = 1.48; z-score, replicate A = 1.62; z-score, replicate B = 1.55; z-score, replicate C = 1.25; activity call = inactive
GIMAP6 | mean z-score = 1.89; z-score, replicate A = 1.74; z-score, replicate B = 2.38; z-score, replicate C = 1.55; activity call = inactive
FOXO1 | mean z-score = 0.77; z-score, replicate A = 1.08; z-score, replicate B = 0.19; z-score, replicate C = 1.03; activity call = inactive
KIAA1958 | mean z-score = 0.04; z-score, replicate A = -0.18; z-score, replicate B = 0.3; z-score, replicate C = 0; activity call = inactive
PPP1R7 | mean z-score = -0.61; z-score, replicate A = -0.6; z-score, replicate B = -0.69; z-score, replicate C = -0.54; activity call = inactive
PRPSAP1 | mean z-score = -1.28; z-score, replicate A = -0.72; z-score, replicate B = -1.61; z-score, replicate C = -1.52; activity call = inactive
CLDND1 | mean z-score = -1.4; z-score, replicate A = -1.39; z-score, replicate B = -1.5; z-score, replicate C = -1.32; activity call = inactive
RNH1 | mean z-score = -1.02; z-score, replicate A = -1.04; z-score, replicate B = -1.29; z-score, replicate C = -0.74; activity call = inactive
BTBD3 | mean z-score = 0.09; z-score, replicate A = -0.07; z-score, replicate B = 0.42; z-score, replicate C = -0.09; activity call = inactive
RNF168 | mean z-score = -0.44; z-score, replicate A = -0.24; z-score, replicate B = -0.53; z-score, replicate C = -0.56; activity call = inactive
CLPX | mean z-score = 0.87; z-score, replicate A = 0.75; z-score, replicate B = 0.72; z-score, replicate C = 1.15; activity call = inactive
AKR1C4 | mean z-score = -0.27; z-score, replicate A = -0.12; z-score, replicate B = 0.11; z-score, replicate C = -0.8; activity call = inactive

Entries listed so far whose target name starts with R or r:
RBMXL2 | mean z-score = -0.42; z-score, replicate A = -0.66; z-score, replicate B = -0.46; z-score, replicate C = -0.15; activity call = inactive
RNH1 | mean z-score = -1.02; z-score, replicate A = -1.04; z-score, replicate B = -1.29; z-score, replicate C = -0.74; activity call = inactive
RNF168 | mean z-score = -0.44; z-score, replicate A = -0.24; z-score, replicate B = -0.53; z-score, replicate C = -0.56; activity call = inactive
